System: HeLa cells
Assay: XTT cytotoxicity assay with HeLa cells
Type: cell-based
Description: XTT assay. Cytotoxicity assays were performed in triplicate against HeLa cells (ATCC CCL-2). The IC50 values were calculated by nonlinear regression with GraphPad Prism 5 (San Diego, Calif.).
XTT assay. XTT assays were performed with HeLa cells (ATCC CCL-2) in triplicate, as previously described (Lancet 2008, 371, 1486). IC50 values were determined by nonlinear regression using GraphPad Prism 5 (San Diego, Calif.).

Row | SMILES | IC50 above MIC90 (HeLa IC50 versus C. difficile MIC90) [fold] | IC50 higher than MIC (HeLa XTT IC50 versus C. difficile MIC) [fold]
1 | O=C(O)c1ccc2oc(NC(=O)c3cc(Oc4cccc(OC(F)(F)F)c4)ccn3)nc2c1 [Compound 1, Sodium 2-(4-(3-(trifluoromethoxy)phenoxy)picolinamido)benzo[d]oxazole-5-carboxylate] | > 700 | 
2 | O=C(Nc1ncco1)c1cc(-c2ccc(Cl)c(Cl)c2)ccn1 [Compound 87, 4-(3,4-Dichlorophenyl)-N-(oxazol-2-yl)picolinamide] |  | 760

Reference: patent publication US20230271950A1, “ANTIBACTERIAL PICOLINAMIDE COMPOUNDS” (University of Notre Dame Du Lac, priority 2020, published 2023)
